Compound potency records, mixed from different reports. Data source: NIAID ChemDB in PubChem.

Shared fields: tests in culture; agent: Mycobacterium avium; read-out: inhibition

Percent inhibition refers to the dose given; in toxicity tests it is the harm to the cells.

{"compound": "Cc1ccc2nc(C)c(C(=O)NCc3ccc(S(F)(F)(F)(F)F)cc3)n2c1", "read by": "fluorescence", "tested at": "0.11 µM", "value": "85%"}
{"compound": "CC(=O)/C(N=Nc1ccc(C(=O)N/N=C/c2ccc([N+](=O)[O-])o2)cc1)=C(/O)c1ccccc1", "tested at": "12.5 µg/mL", "value": "45%"}
{"compound": "CCc1nc2ccc(Cl)cn2c1C(=O)NCc1ccc(N2CCN(c3ccc(OCC4CC4)cc3)[C@@H](C)C2)cc1F.Cl", "read by": "fluorescence", "tested at": "0.024 µM", "value": "85%"}
{"compound": "O=c1[nH]c(=O)n([C@@H]2O[C@H](CO)[C@@H](O)[C@H]2F)cc1/C=C/I", "tested at": "50 µg/mL", "strain": "ATCC 25291", "value": "0%"}
{"compound": "Cc1ccn2c(C(=O)NCc3ccc(C4CCN(c5ccc(OCC(F)(F)F)cc5)CC4)c(F)c3)c(C)nc2c1", "read by": "fluorescence", "tested at": "0.038 µM", "value": "85%"}
{"compound": "CO[C@H]1/C=C/O[C@@]2(C)Oc3c(C)c(O)c4c(O)c(c5c(c4c3C2=O)NC2(CCN(CC(C)C)CC2)N=5)=NC(=O)/C(C)=C\\C=C\\[C@H](C)[C@H](O)[C@@H](C)[C@@H](O)[C@@H](C)[C@H](O)[C@@H]1C", "read by": "colony count", "tested at": "0.4 µg/mL", "strain": "1581", "value": ">99%"}
{"compound": "N#C/C(=C\\c1ccc(Br)cc1)n1nnc2ccccc21", "tested at": "12.5 µg/mL", "value": "30%"}
{"compound": "O=C1NC(Nc2ccc(Cl)cc2)=N/C1=C\\c1ccccc1Cl", "tested at": "12.5 µg/mL", "value": "71%"}
{"compound": "O=c1[nH]c(=O)n([C@H]2C[C@H](O)[C@@H](CO)O2)cc1Br", "tested at": "50 µg/mL", "strain": "ATCC 25291", "value": "0%"}
{"compound": "CC(=O)N1N=C(c2ccncc2)OC1c1ccc(F)c(F)c1", "tested at": "12.5 µg/mL", "value": "98%"}
{"compound": "CO[C@H]1/C=C/O[C@@]2(C)Oc3c(C)c(O)c4c(c3C2=O)C2=NC3(CCN(CC(C)C)CC3)N(C(C)=O)C2=C(NC(=O)/C(C)=C\\C=C\\[C@H](C)[C@H](O)[C@@H](C)[C@@H](O)[C@@H](C)[C@H](OC(C)=O)[C@@H]1C)C4=O", "read by": "colony count", "tested at": "0.4 µg/mL", "strain": "1581", "value": ">99%"}
{"compound": "CCc1nc2cc(F)ccn2c1C(=O)NCc1cc(F)c(N2CCN(c3ccc(OC(F)(F)F)cc3)[C@@H](C)C2)c(F)c1.Cl", "read by": "fluorescence", "tested at": "0.0022 µM", "value": "85%"}
{"compound": "CO[C@H]1/C=C/O[C@@]2(C)Oc3c(C)c(O)c4c(c3C2O)C2=NC3(CCN(CC(C)C)CC3)N(C(C)=O)C2=C(NC(=O)/C(C)=C\\C=C\\[C@H](C)[C@H](O)[C@@H](C)[C@@H](O)[C@@H](C)[C@H](OC(C)=O)[C@@H]1C)C4=O", "read by": "colony count", "tested at": "0.4 µg/mL", "strain": "1581", "value": ">99%"}
{"compound": "Cc1ccn2c(C(=O)NCc3ccc(N4CCN(c5ccc(OC(F)(F)F)cc5)[C@@H](C)C4)c(C(F)(F)F)c3)c(C)nc2c1", "read by": "fluorescence", "tested at": "0.25 µM", "value": "85%"}
{"compound": "[N-]=[N+]=N[C@H]1C[C@H](n2cc(Cl)c(=O)[nH]c2=O)O[C@@H]1CO", "read by": "resazurin", "tested at": "100 µg/mL", "strain": "ATCC 25291", "value": "0%"}
{"compound": "OO", "tested at": "0.0005 µM", "strain": "485", "value": "48%"}
{"compound": "O=c1[nH]c(=O)n([C@@H]2O[C@H](CO)[C@@H](O)[C@H]2O)cc1O", "tested at": "50 µg/mL", "strain": "ATCC 25291", "value": "0%"}
{"compound": "CCc1cn([C@H]2C[C@H](O)[C@@H](CO)O2)c(=O)[nH]c1=O", "read by": "resazurin", "tested at": "100 µg/mL", "strain": "ATCC 25291", "value": "0%"}
{"compound": "CCc1nc2cc(F)ccn2c1C(=O)NCc1ccc(N2CCN(c3ccc(OC(F)(F)F)cc3)[C@@H](CC)C2)c(F)c1.Cl", "read by": "fluorescence", "tested at": "0.0065 µM", "value": "85%"}
{"compound": "CO[C@H]1/C=C/O[C@@]2(C)Oc3c(C)c(O)c4c(O)c(c5c(c4c3C2=O)NC2(CC[N+]([O-])(CC(C)C)CC2)N=5)=NC(=O)/C(C)=C\\C=C\\[C@H](C)[C@H](O)[C@@H](C)[C@@H](O)[C@@H](C)[C@H](O)[C@@H]1C", "read by": "colony count", "tested at": "0.4 µg/mL", "strain": "1581", "value": "0%"}
{"compound": "CCc1nc2cc(Cl)ccn2c1C(=O)NCc1ccc(N2CCN(c3ccc(OC(F)(F)F)cc3)[C@@H](CC)C2)c(F)c1", "read by": "fluorescence", "tested at": "0.009 µM", "value": "85%"}
{"compound": "O=c1ccn([C@@H]2O[C@H](CO)[C@@H](O)[C@H]2F)c(=O)[nH]1", "tested at": "50 µg/mL", "strain": "ATCC 25291", "value": "0%"}
{"compound": "CCc1nc2cc(F)ccn2c1C(=O)NCc1ccc(N2CCN(c3ccc(OC(F)(F)F)cc3)[C@@H](C)C2)c(F)c1F.Cl", "read by": "fluorescence", "tested at": "0.011 µM", "value": "85%"}
{"compound": "[N-]=[N+]=N[C@H]1C[C@H](n2cc(F)c(=O)[nH]c2=O)O[C@@H]1CO", "read by": "resazurin", "tested at": "100 µg/mL", "strain": "ATCC 25291", "value": "0%"}
{"compound": "CO[C@H]1O[C@@H](n2ccc(=O)[nH]c2=O)C[C@@H]1N=[N+]=[N-]", "tested at": "50 µg/mL", "strain": "ATCC 25291", "value": "0%"}
{"compound": "O=C1NC(Nc2ccc(Cl)cc2)=N/C1=C\\c1ccc(Cl)cc1Cl", "tested at": "12.5 µg/mL", "value": "66%"}

A second listing of 3 rows from above:

compound	read by	tested at	strain	value
CO[C@H]1/C=C/O[C@@]2(C)Oc3c(C)c(O)c4c(c3C2O)C2=NC3(CCN(CC(C)C)CC3)N(C(C)=O)C2=C(NC(=O)/C(C)=C\C=C\[C@H](C)[C@H](O)[C@@H](C)[C@@H](O)[C@@H](C)[C@H](OC(C)=O)[C@@H]1C)C4=O	colony count	0.4 µg/mL	1581	>99%
[N-]=[N+]=N[C@H]1C[C@H](n2cc(F)c(=O)[nH]c2=O)O[C@@H]1CO	resazurin	100 µg/mL	ATCC 25291	0%
CO[C@H]1/C=C/O[C@@]2(C)Oc3c(C)c(O)c4c(c3C2=O)C2=NC3(CCN(CC(C)C)CC3)N(C(C)=O)C2=C(NC(=O)/C(C)=C\C=C\[C@H](C)[C@H](O)[C@@H](C)[C@@H](O)[C@@H](C)[C@H](OC(C)=O)[C@@H]1C)C4=O	colony count	0.4 µg/mL	1581	>99%

Neighbouring rows are from separate reports.